PubChem BioAssay AID624099, ICCB-Longwood – 2012
In all, the deposit lists about 21,000 reagents; this is a random part of them. 497 of them (2.4%) were called active. 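Higher z means weaker E2 silencing; only reporter increases were scored, and knock-downs that hurt cell survival may mask genuine repressor factors.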 A number with no mark means an inactive call. Reagents against one gene are numbered here.

- Screen: 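Host factors E2 relies on to silence an HPV18 LCR reporter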 (primary screen)
- Cell system: human C33A cervical carcinoma cells (HPV-negative) stably expressing BPV1 E2 and an HPV18 LCR luciferase reporter
- Reagents: siRNA pool against human genes, 40 nM
- Duration: 72 h
- Read-out: 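HPV18 LCR reporter light per well, converted to plate-wise z-scores that exclude control wells, and averaged over triplicate plates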
- Scale: mean z-score and z-score: higher = stronger reporter signal, weaker E2 silencing
- Call rule: 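Hit if mean z-score reaches 2 and two or more of three replicate z-scores also reach 2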

gene,reagent,mean z-score,"z-score, replicate A","z-score, replicate B","z-score, replicate C"
ZNF383 (GeneID 163087),1,0.2,0.05,0.55,0
IL7 (GeneID 3574),1,0.78,0.69,0.85,0.8
AKTIP (GeneID 64400),1,-0.12,-0.66,0.13,0.16
LOC401165 (retired record) (GeneID 401165),1,0.33,0.7,0.25,0.04
MTOR (GeneID 2475),1,-1.52,-1.37,-1.76,-1.42
MUC3B (GeneID 57876),1,-0.12,-0.06,-0.23,-0.06
MUC3B (GeneID 57876),2,0.39,0.78,0.62,-0.23
ROBO1 (GeneID 6091),1,0.25,0.2,0.4,0.14
RINT1 (GeneID 60561),1,0.81,1.02,0.52,0.91
EGLN1 (GeneID 54583),1,-0.11,-0.39,-0.17,0.22
SPRR4 (GeneID 163778),1,-0.17,-0.43,-0.31,0.24
ZNF792 (GeneID 126375),1,-0.45,-0.62,-0.51,-0.2
ARG1 (GeneID 383),1,0.29,0.17,0.4,0.3
MRPS16 (GeneID 51021),1,-0.13,-0.21,0.09,-0.26
COX6B2 (GeneID 125965),1,-0.56,-0.63,-0.41,-0.65
GRK4 (GeneID 2868),1,1.35,1.7,1.31,1.03
FTSJ1 (GeneID 24140),1,-1.39,-1.37,-1.48,-1.31
CNGA3 (GeneID 1261),1,0.41,0.31,0.52,0.39
PPM1M (GeneID 132160),1,0.84,0.46,1.39,0.68
FSTL4 (GeneID 23105),1,0.71,0.59,0.82,0.72
LINC00410 (GeneID 144776),1,1.99,2.75,1.64,1.58
NSMF (GeneID 26012),1,-1.5,-1.38,-1.46,-1.66
H3-4 (GeneID 8290),1,-0.83,-0.73,-0.78,-0.98
CHODL (GeneID 140578),1,-0.05,-0.42,0.11,0.16
SDF4 (GeneID 51150),1,-0.27,-0.78,0.25,-0.28
FLJ44076 (retired record) (GeneID 401080),1,-0.45,-0.62,0.11,-0.84
DPF2 (GeneID 5977),1,-0.07,0.08,0.03,-0.3
RSBN1 (GeneID 54665),1,-0.07,-0.4,-0.17,0.35
PABPN1 (GeneID 8106),1,0.3,0.43,0.34,0.14
ANGPTL8 (GeneID 55908),1,-1.72,-2.15,-1.62,-1.37
ELP5 (GeneID 23587),1,-0.33,-0.13,-0.33,-0.52
LOC341651 (retired record) (GeneID 341651),1,1.41,1.47,1.4,1.36
OPALIN (GeneID 93377),1,-1.02,-1.07,-1.03,-0.97
CDC5L (GeneID 988),1,0.44,0.39,0.73,0.21
SLC71A2 (GeneID 84641),1,-0.06,-0.16,0.02,-0.05
GEM (GeneID 2669),1,0.04,0.49,-0.19,-0.19
RNF5 (GeneID 6048),1,0.94,0.69,1.1,1.05
ATP6V1E2 (GeneID 90423),1,-0.4,-0.26,-0.86,-0.09
CCDC9 (GeneID 26093),1,-1.44,-1.64,-1.18,-1.51
